PubChem BioAssay AID1259414 – Drosophila RNAi Screening Center – 2018
Assay: 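Fly genes that alter Wolbachia amount inside host cells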 (primary screen). Cells: Drosophila JW18 cells infected with Wolbachia. Reagent: long dsRNA against Drosophila genes, 0.25 µg dsRNA per well of a 384-well plate. Time to read-out: 5 days. Treatment: cells persistently infected with Wolbachia before knock-down; no added drug. Measured: 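Imaged fluorescence in situ signal for Wolbachia 23S rRNA per DAPI-counted host cell, given as a robust z-score within each plate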. Scale: Wolbachia per cell robust z: higher = more Wolbachia per host cell than the plate typical. Active means: 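Active if absolute robust z reaches 1.5 in two or more of three replicates, leaving out multi- or no-target dsRNAs, genes unexpressed in JW18 and A1 wells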.
The screen tested about 24,000 reagents; this is an unselected part of those with a known target gene and a result. In the full data, about 1,210 (5%) got an active call. 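Inactive calls also include excluded dsRNAs with several or no targets, genes unexpressed in JW18, and well A1, regardless of score.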 Unmarked entries are inactive. Reagent sequences are not shown.

{"target":"CG8611","DRSC id":"DRSC19340","Wolbachia per cell robust z, rep 1":"-2.36 (active)","Wolbachia per cell robust z, rep 2":-5.39,"Wolbachia per cell robust z, rep 3":0.591}
{"target":"CG8611","DRSC id":"DRSC24619","Wolbachia per cell robust z, rep 1":-4.25,"Wolbachia per cell robust z, rep 2":0.572,"Wolbachia per cell robust z, rep 3":-0.293}
{"target":"Targ","DRSC id":"DRSC06206","Wolbachia per cell robust z, rep 1":0.943,"Wolbachia per cell robust z, rep 2":1.22,"Wolbachia per cell robust z, rep 3":0.265}
{"target":"CG32695","DRSC id":"DRSC17975","Wolbachia per cell robust z, rep 1":0.825,"Wolbachia per cell robust z, rep 2":0.529,"Wolbachia per cell robust z, rep 3":0.944}
{"target":"tej","DRSC id":"DRSC07219","Wolbachia per cell robust z, rep 1":-0.151,"Wolbachia per cell robust z, rep 2":1.97,"Wolbachia per cell robust z, rep 3":1.29}
{"target":"tej","DRSC id":"DRSC24278","Wolbachia per cell robust z, rep 1":0.447,"Wolbachia per cell robust z, rep 2":-0.688,"Wolbachia per cell robust z, rep 3":-2.34}
{"target":"CG33927","DRSC id":"DRSC37831","Wolbachia per cell robust z, rep 1":-0.162,"Wolbachia per cell robust z, rep 2":-1.89,"Wolbachia per cell robust z, rep 3":-1.18}
{"target":"Cdc45","DRSC id":"DRSC17747","Wolbachia per cell robust z, rep 1":-0.437,"Wolbachia per cell robust z, rep 2":1.07,"Wolbachia per cell robust z, rep 3":0.907}
{"target":"Cdc45","DRSC id":"DRSC18164","Wolbachia per cell robust z, rep 1":-0.684,"Wolbachia per cell robust z, rep 2":-0.474,"Wolbachia per cell robust z, rep 3":-0.99}
{"target":"CG15706","DRSC id":"DRSC06577","Wolbachia per cell robust z, rep 1":0.214,"Wolbachia per cell robust z, rep 2":-0.134,"Wolbachia per cell robust z, rep 3":-0.0961}
{"target":"CG10038","DRSC id":"DRSC14178","Wolbachia per cell robust z, rep 1":-0.42,"Wolbachia per cell robust z, rep 2":-1.44,"Wolbachia per cell robust z, rep 3":0.839}
{"target":"CG2310","DRSC id":"DRSC15438","Wolbachia per cell robust z, rep 1":-0.454,"Wolbachia per cell robust z, rep 2":0.186,"Wolbachia per cell robust z, rep 3":0.438}
{"target":"CG33262","DRSC id":"DRSC22893","Wolbachia per cell robust z, rep 1":-0.357,"Wolbachia per cell robust z, rep 2":-1.57,"Wolbachia per cell robust z, rep 3":-2.61}
{"target":"Osi24","DRSC id":"DRSC12275","Wolbachia per cell robust z, rep 1":0.331,"Wolbachia per cell robust z, rep 2":-2.47,"Wolbachia per cell robust z, rep 3":-6.79}
{"target":"Gp93","DRSC id":"DRSC15827","Wolbachia per cell robust z, rep 1":-1.54,"Wolbachia per cell robust z, rep 2":-0.309,"Wolbachia per cell robust z, rep 3":-0.232}
{"target":"Gp93","DRSC id":"DRSC27798","Wolbachia per cell robust z, rep 1":"-0.0477 (active)","Wolbachia per cell robust z, rep 2":-2.65,"Wolbachia per cell robust z, rep 3":-1.66}
{"target":"CG15824","DRSC id":"DRSC00473","Wolbachia per cell robust z, rep 1":-3.2,"Wolbachia per cell robust z, rep 2":0.122,"Wolbachia per cell robust z, rep 3":-1.28}
{"target":"CG15824","DRSC id":"DRSC27412","Wolbachia per cell robust z, rep 1":1.24,"Wolbachia per cell robust z, rep 2":0.337,"Wolbachia per cell robust z, rep 3":-4.78}
{"target":"Rab8","DRSC id":"DRSC11261","Wolbachia per cell robust z, rep 1":1.03,"Wolbachia per cell robust z, rep 2":0.991,"Wolbachia per cell robust z, rep 3":1.24}
{"target":"Rpt3","DRSC id":"DRSC20283","Wolbachia per cell robust z, rep 1":"2.21 (active)","Wolbachia per cell robust z, rep 2":2.12,"Wolbachia per cell robust z, rep 3":2.35}
{"target":"Rpt3","DRSC id":"DRSC23412","Wolbachia per cell robust z, rep 1":"1.84 (active)","Wolbachia per cell robust z, rep 2":2.49,"Wolbachia per cell robust z, rep 3":2.23}
{"target":"Sema1b","DRSC id":"DRSC07550","Wolbachia per cell robust z, rep 1":0.341,"Wolbachia per cell robust z, rep 2":-0.268,"Wolbachia per cell robust z, rep 3":-10.7}
{"target":"Sema1b","DRSC id":"DRSC27552","Wolbachia per cell robust z, rep 1":0.499,"Wolbachia per cell robust z, rep 2":-0.42,"Wolbachia per cell robust z, rep 3":0.269}
{"target":"CG10317","DRSC id":"DRSC14229","Wolbachia per cell robust z, rep 1":-2.6,"Wolbachia per cell robust z, rep 2":-0.00316,"Wolbachia per cell robust z, rep 3":-0.161}

Hits (from the list above):
{"target":"CG8611","DRSC id":"DRSC19340","Wolbachia per cell robust z, rep 1":"-2.36 (active)","Wolbachia per cell robust z, rep 2":-5.39,"Wolbachia per cell robust z, rep 3":0.591}
{"target":"Gp93","DRSC id":"DRSC27798","Wolbachia per cell robust z, rep 1":"-0.0477 (active)","Wolbachia per cell robust z, rep 2":-2.65,"Wolbachia per cell robust z, rep 3":-1.66}
{"target":"Rpt3","DRSC id":"DRSC20283","Wolbachia per cell robust z, rep 1":"2.21 (active)","Wolbachia per cell robust z, rep 2":2.12,"Wolbachia per cell robust z, rep 3":2.35}
{"target":"Rpt3","DRSC id":"DRSC23412","Wolbachia per cell robust z, rep 1":"1.84 (active)","Wolbachia per cell robust z, rep 2":2.49,"Wolbachia per cell robust z, rep 3":2.23}
